Patent US10112926B2 (priority 2014, dated 2018)

The chains behind the UniProt entries cited, without tags or fusion partners.
UniProt O00329, whole entry: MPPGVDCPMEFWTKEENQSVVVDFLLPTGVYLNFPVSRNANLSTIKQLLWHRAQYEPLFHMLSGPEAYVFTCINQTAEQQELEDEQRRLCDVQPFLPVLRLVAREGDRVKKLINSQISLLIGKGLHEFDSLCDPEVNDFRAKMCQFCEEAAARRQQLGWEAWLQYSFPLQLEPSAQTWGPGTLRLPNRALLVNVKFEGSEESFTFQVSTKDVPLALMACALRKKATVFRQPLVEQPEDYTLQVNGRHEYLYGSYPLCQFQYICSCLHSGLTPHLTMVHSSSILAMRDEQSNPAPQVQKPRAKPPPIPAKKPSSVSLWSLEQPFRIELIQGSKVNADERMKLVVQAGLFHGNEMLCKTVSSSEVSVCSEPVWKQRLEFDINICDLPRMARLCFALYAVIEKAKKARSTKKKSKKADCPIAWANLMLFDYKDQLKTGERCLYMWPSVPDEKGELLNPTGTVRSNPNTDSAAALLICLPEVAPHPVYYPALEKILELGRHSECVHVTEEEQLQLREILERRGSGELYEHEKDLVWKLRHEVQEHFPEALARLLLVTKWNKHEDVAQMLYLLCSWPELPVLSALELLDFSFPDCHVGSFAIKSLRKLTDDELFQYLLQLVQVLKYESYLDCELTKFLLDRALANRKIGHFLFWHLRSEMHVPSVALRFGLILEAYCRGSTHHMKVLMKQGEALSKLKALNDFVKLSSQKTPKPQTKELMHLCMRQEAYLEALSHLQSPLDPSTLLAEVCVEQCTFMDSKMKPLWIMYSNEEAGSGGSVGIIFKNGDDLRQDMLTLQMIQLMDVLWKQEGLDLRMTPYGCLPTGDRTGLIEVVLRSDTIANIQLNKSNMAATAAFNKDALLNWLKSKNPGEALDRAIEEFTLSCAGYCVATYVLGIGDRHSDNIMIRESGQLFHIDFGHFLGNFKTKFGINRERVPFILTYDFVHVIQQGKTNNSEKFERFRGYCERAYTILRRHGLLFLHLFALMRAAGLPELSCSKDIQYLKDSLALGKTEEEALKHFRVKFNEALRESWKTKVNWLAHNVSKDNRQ

Target: PI 3-kinase delta (Rat-1 pBABEpuro Myr-HA-hp110 delta cells) (Homo sapiens (Human), UniProt O00329)
Assay: cell-based
Details: Assay J PI3Kδ

`Cc1ccc(S(=O)(=O)N2CCOCC2)cc1-c1cnc(N)c(C(=O)c2cccnc2)c1` [(i), reference compound] and `Cc1ccc(S(=O)(=O)N2CCOCC2)cc1-c1cnc(N)c(C(=O)c2cccnc2)n1` [(ix), reference compound] are within 1.5-fold of each other in IC50: 1100 nM for the first, 1260 nM for the second.

Going from `COCCNS(=O)(=O)c1cccc(-c2cnc(N)c(C(=O)c3cccnc3)n2)c1` [(iv), reference compound] to `COCCNS(=O)(=O)c1cc(-c2cnc(N)c(C(=O)c3cccnc3)n2)ccc1Cl` [(vi), reference compound], the IC50 falls from 1360 nM to 170 nM (8-fold).

Work on `Nc1ncc(-c2ccc(Cl)c(S(=O)(=O)N[C@H]3CC[C@H](O)CC3)c2)nc1C(=O)c1cccnc1` [(v), reference compound] yielded an IC50 of 150 nM.

Same assay, conditions: Assay J PI3Kδ IC50

`Cc1cc(-c2cc(-c3cc(S(=O)(=O)NCC4(CO)CCCCC4)ccc3C)cnc2N)on1` [Example 37.3, 3-(6-Amino-5-(3-methylisoxazol-5-yl)pyridin-3-yl)-N-((1-(hydroxymethyl)cyclohexyl)methyl)-4-methylbenzenesulfonamide] and `Cc1cc(-c2cc(-c3cc(S(=O)(=O)NCC4(O)CCC4)ccc3C)cnc2N)on1` [Example 37.35, 3-(6-Amino-5-(3-methylisoxazol-5-yl)pyridin-3-yl)-N-((1-hydroxycyclobutyl)methyl)-4-methylbenzenesulfonamide] are within 1.5-fold of each other in IC50: 1230 nM for the first, 1420 nM for the second.

Going from `Cc1cc(-c2cc(-c3cc(S(=O)(=O)NC[C@@H]4CCCO4)ccc3C)cnc2N)on1` [Example 40, (S)-3-(6-Amino-5-(3-methylisoxazol-5-yl)pyridin-3-yl)-4-methyl-N-((tetrahydrofuran-2-yl)methyl)benzenesulfonamide] to `Cc1cc(-c2cc(-c3cc(S(=O)(=O)NCCO)ccc3C)cnc2N)on1` [Example 73, 3-(6-Amino-5-(3-methylisoxazol-5-yl)pyridin-3-yl)-N-(2-hydroxyethyl)-4-methylbenzenesulfonamide], the IC50 rises from 71 nM to 1190 nM (17-fold). The first is the more potent here.

For `Cc1noc(-c2cc(-c3cc(S(=O)(=O)NOC(C)(C)C)ccc3C)cnc2N)n1` [Example 47, 3-(6-Amino-5-(3-methyl-1,2,4-oxadiazol-5-yl)pyridin-3-yl)-N-(tert-butoxy)-4-methylbenzenesulfonamide], the IC50 was 370 nM.
